Measured values: PMC5683647, “Comparison of histone-like HU protein DNA-binding properties and HU/IHF protein sequence alignment”

Target: T1, HU (Neisseria gonorrhoeae) (UniProt Q5F8J6)
T1 sequence (looked up, limits assumed): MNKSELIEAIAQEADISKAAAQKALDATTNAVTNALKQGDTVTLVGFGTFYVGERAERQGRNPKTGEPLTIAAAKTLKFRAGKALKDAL
Experiment: EMSA
Conditions: 20 mM Tris-HCl pH 8.0, 7% glycerol, 40 mM NaCl (dsDNA length series, 200 nM DNA, gel 50 mM Tris-borate) or 150 mM NaCl, recombinant protein, protein details: N-terminal 6xHisTEV removed by TEV protease

[1] = 150 mM NaCl, label: 5'-HEX on strand 1, folded or branched DNA

**Q.** Does “AGTCTAGAGTGCAGTTGAGTCCT (double strand) [D23 dsDNA]” bind (40 mM NaCl, label: 5'-HEX)?
**A.** Result: binds

**Q.** Does “AGTCTAGAGTGCAGTTGAGTCCTTG (double strand) [D25 dsDNA]” bind (40 mM NaCl, label: 5'-HEX)?
**A.** Result: binds

**Q.** Does “AGTCTAGAGTGCAGTTGAGTCCTTGCTAC (double strand) [D29 dsDNA]” bind (40 mM NaCl, label: 5'-HEX)?
**A.** Result: binds

**Q.** Does “AGTCTAGAGTGCAGTTGAGTCCTTGCTACGACG (double strand) [D33 dsDNA]” bind (40 mM NaCl, label: 5'-HEX)?
**A.** Result: binds

**Q.** Does “AGTCTAGAGTGCAGTTGAGTCCTTGCTACGACGGATCCCTTAGGTCAG (double strand) [D48 dsDNA (ds)]” bind (40 mM NaCl, 4 complexes, label: 5'-HEX on strand 1)?
**A.** Result: binds

**Q.** Does “AGTCTAGAGTGCAGTTGAGTCCTTGCTACGACGGATCCCTTAGGTCAG (double strand) [D48 dsDNA (ds)]” bind (150 mM NaCl, smear, label: 5'-HEX on strand 1)?
**A.** Result: binds more weakly

**Q.** Does “AGTCTAGAGTGCAGTTGAGTCCTTGCTACGACGGATCCCTTAGGTCAG / ACTCAACTGCACTCTAGACT [overhang (ov)]” bind [1]?
**A.** Result: binds

**Q.** Does “AGTCTAGAGTGCAGTTGAGTCCTTGCTACGACGGATCCCTTAGGTCAG / CTGACCTAAGGGATCCGTCGTAGCAAGAAAAAAAGACTCAACTGCACTCTAGACT [bulge A7]” bind [1]?
**A.** Result: binds

**Q.** Does “AGTCTAGAGTGCAGTTGAGTCCTTGCTACGACGGATCCCTTAGGTCAG / CTGACCTAAGGGATCCGTCGTAGCAAGAAAGACTCAACTGCACTCTAGACT [bulge A3]” bind (150 mM NaCl, among lowest affinities, label: 5'-HEX on strand 1, folded or branched DNA)?
**A.** Result: binds more weakly

**Q.** Does “AGTCTAGAGTGCAGTTGAGTCCTTGCTACGACGGATCCCTTAGGTCAG / CTGACCTAAGGGATCCGTCGTAGCAAGG / ACTCAACTGCACTCTAGACT [nicked DNA (n)]” bind (150 mM NaCl, weaker than junction, label: 5'-HEX on strand 1, folded or branched DNA)?
**A.** Result: binds more weakly

**Q.** Does “GTCTAGAGTGCAGTTGAGTCCTTGCTACGA (double strand) [D31 dsDNA]” bind (40 mM NaCl, label: 5'-HEX)?
**A.** Result: binds

Tags and fusion partners may be left off the protein sequences shown. Construct, isoform or probe ends are uncertain for at least one entry. The comparison behind a weaker result is the experiment's own reference, which may not be listed here. At least one verdict was read from the data and is not stated in words by the source.
